Primary screen of a compound library

Mtb glucose medium: 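Phenotypic screen: M. tuberculosis growth, glucose 7H9 medium, 3 days; the read-out is not stated. Compounds at 500 µM. Direction is inferred from retests: higher values go with more growth inhibition. About 18,000 compounds were tested under these conditions; 7.9% (about 1,400) showed 50% or more at least once.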
Mtb cholesterol medium: 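Growth of Mycobacterium tuberculosis over 4 days (cholesterol / DPPC medium with tyloxapol); the read-out is not stated. Concentration: 500 µM. Direction is inferred from retests: higher values go with more growth inhibition. Of about 18,000 compounds tested this way, about 900 (5%) reached 50% or more in at least one test.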

Values are the deposited “Percent Effect”, in %. The record does not define 0% and 100%; most values in the screen are far below 50% and negative numbers occur (in some assays of this library far below -100). Many other results are left out here, so strong results are more common than in the screen. A dash means the value is not listed here; it may have been measured.

SMILES: NC(=O)C1CN(C/C=C/c2ccc(F)cc2)CCO1 (stereo unspecified)
Mtb glucose medium: 44.99%
Mtb cholesterol medium: 33.3%

SMILES: CC(=O)N1CCc2c(F)ccc(F)c2C1
Mtb glucose medium: -0.3803%

SMILES: CC1(CNC(=O)c2cnccn2)CCOCC1
Mtb glucose medium: 30.88%

SMILES: CCOC(=O)C(C)(N)C(C)C (stereo unspecified)
Mtb glucose medium: -10.22%

SMILES: Cc1ccc(NC(=O)C2CC2)c(CN(C)C)c1
Mtb glucose medium: 27.37%

SMILES: N#CC1=C(N)n2ncnc2NC1c1ccccc1 (stereo unspecified)
Mtb glucose medium: -6.983%

SMILES: NC1CCCOc2c(Cl)cccc21 (stereo unspecified)
Mtb glucose medium: 24.65%

SMILES: CC(=O)Nc1ccc(N2CCCCC2)nc1
Mtb glucose medium: 51.17%

SMILES: CC(C)NC(=O)c1cccc(C(N)=O)c1
Mtb glucose medium: -2.184%

SMILES: CN(C)S(=O)(=O)c1ccc(CN2CCC(C(N)=O)C2)o1 (stereo unspecified)
Mtb glucose medium: 7.427%
Mtb cholesterol medium: -1.433%

SMILES: NC1CCN(c2cccs2)CC1
Mtb glucose medium: 39.01%

SMILES: CN(CCc1ccncc1)Cc1ccc(N(C)C)nc1
Mtb glucose medium: 9.609%

SMILES: CC(O)CN1CCN(C(=O)c2cc(Br)c[nH]2)CC1 (stereo unspecified)
Mtb glucose medium: 23.62%
Mtb cholesterol medium: 18.96%

SMILES: CC(C#N)Sc1nnc(-c2cccnc2)n1C (stereo unspecified)
Mtb glucose medium: 7.171%
Mtb cholesterol medium: 12.72%

SMILES: CCC(C(=O)Nc1ncc(C)[nH]1)N1CCCC1=O (stereo unspecified)
Mtb cholesterol medium: -0.2127%

SMILES: NCCCc1ccccc1F
Mtb glucose medium: -1.087%
Mtb cholesterol medium: -25.23%

SMILES: CC(CNC(=O)c1ccc(Cl)cn1)Cn1ccnc1 (stereo unspecified)
Mtb glucose medium: 81.97%

SMILES: CCN(CC)c1ccc(C(=O)Nc2cc[nH]n2)cn1
Mtb glucose medium: 70.85%
Mtb cholesterol medium: 99.47%

SMILES: COC(=O)c1ccc(CSc2n[nH]c(C)n2)o1
Mtb glucose medium: 63.97%
Mtb cholesterol medium: 69.04%

SMILES: NC1CN(c2ccncn2)C1
Mtb cholesterol medium: 8.447%

SMILES: CC1CCCN(c2cc(CNS(C)(=O)=O)ccn2)C1 (stereo unspecified)
Mtb glucose medium: 61.12%
Mtb cholesterol medium: 64.88%

SMILES: Cc1cc(NC(=O)CN2CCN(C(C)C)CC2)n(C)n1
Mtb cholesterol medium: -21.66%

SMILES: Cc1csc(CNC(=O)c2ccco2)n1
Mtb glucose medium: 51.96%

SMILES: CCCN1CC(C(=O)NCc2cccnc2)CC1=O (stereo unspecified)
Mtb glucose medium: -13.13%

Some entries from above, unchanged:

SMILES,Mtb glucose medium,Mtb cholesterol medium
CC1CCCN(c2cc(CNS(C)(=O)=O)ccn2)C1 (stereo unspecified),61.12%,64.88%
CCC(C(=O)Nc1ncc(C)[nH]1)N1CCCC1=O (stereo unspecified),-,-0.2127%
Cc1ccc(NC(=O)C2CC2)c(CN(C)C)c1,27.37%,-

Source: ChEMBL document CHEMBL3988442, “University of Dundee, Small-Polar-MMV Screening Library” (2021).